For this assay, the system named is CSFV reference strain Alfort 187. Type of assay: cell-based, porcine.

Read-outs that look alike come from different tables or passages of the source.

Take IFN-γ: the “Levels of viral E2 protein in the cytosol of infected cells” value is listed as “dose-dependant effect on the reduction”, the “Number of infected cells” value is on record as “reduced the number of infected cells down to a level comparable with those of cells pre-treated with IFN-α”, the “Proportion of infected cells” value is on record as “no effect” and the “Viral RNA released into the culture supernatant” value is given as “dose-dependant effect on the reduction”. For the same substance, the “Proportion of CSFV infected cells” value (after 24 hours) is “dose-dependant reduction”. Also, the “Proportion of CSFV infected cells” value (after 48 hours) is recorded as “reduction in the proportion of CSFV infected cells”.

(Values after US20120258127A1 (priority 2010, published 2012).)
